In patent US10245246B2, “β-substituted β-amino acids and analogs as chemotherapeutic agents” (QUADRIGA BIOSCIENCES, INC., priority 2014, dated 2019):

System: LLCPK cells conditionally expressing hLAT1
Test: LAT1-specific in vitro cytotoxicity, modified clonogenic assay
Assay type: cell-based
Settings: 3 μM test compound for 30 min, proliferation 7-10 days

Question: For `Cc1cc(N(CCCl)CCCl)ccc1C(N)CC(=O)O` (stereo not shown), which “percent surviving cells in cells expressing LAT1 compared to cells not expressing LAT1 (reduction)” value is on record?
Answer: The value was “about the same”.
